Results of unrelated studies side by side (data: NIAID ChemDB).

All rows: tests in culture; species: Cryptococcus neoformans; method: broth dilution; measure: MIC

Lines come from different laboratories, so protocols vary. Blank or dashed fields: not listed here.

compound | setting | strain or isolate | result
Oc1ccccc1N=Cc1ccc2c(c1)OCO2 | - | 27JF | 11.3 µg/mL
CCCCCOc1ccc(-c2cc(-c3ccc(C(=O)N[C@H]4C[C@@H](O)[C@@H](O)NC(=O)[C@@H]5[C@@H](O)[C@@H](C)CN5C(=O)[C@H]([C@H](O)CC(N)=O)NC(=O)[C@H]([C@H](O)[C@@H](O)c5ccc(O)c(OS(=O)(=O)O)c5)NC(=O)[C@@H]5C[C@@H](O)CN5C(=O)[C@H]([C@@H](C)O)NC4=O)cc3)no2)cc1 | - | YC203 | >50 µg/mL
CO[C@@]12OC(=O)C(C)=C1C1=C3[C@](C)([C@@H]4C[C@@H]4[C@@]3(O)C[C@@H]3[C@]14OC(=O)C1=C4C[C@H]4[C@](O)(COC(=O)/C(C)=C/COC(=O)CCC(=O)OC1)[C@H]1C[C@H]1[C@]34C)[C@H]2O | - | ATCC 22402 | 128 µg/mL
Cc1ccc(NC2=C(Cl)C(=O)c3nc(C)sc3C2=O)cc1 | - | KCCM 50564 | 12.5 µg/mL
CCC(C)n1ncn(-c2ccc(N3CCN(c4ccc(OC[C@H]5CO[C@](Cn6cncn6)(c6ccc(Cl)cc6Cl)O5)cc4)CC3)cc2)c1=O | - | L3 | 2 µg/mL
CCCCCCCCCCCCCCCCCC(=O)NC(CCCN)C(=O)NC(CCCN)C(=O)NC(CCCN)C(=O)NC(CCCN)C(=O)NC(CCCN)C(N)=O | - | ATCC 2344 | 3.1 µg/mL
Cn1nc(Cc2ccc(Cl)cc2)c2ccccc2c1=O | - | Clinical isolate (IM 042074) | 15.6 µg/mL
C[n+]1c2cccc(Cl)c2cc2sc3ccccc3c21 | - | ATCC 90113 | >20 µg/mL
Cc1nc2c(s1)C(=O)C(Nc1ccc(I)cc1)=C(Cl)C2=O | - | KCCM 50564 | 12.5 µg/mL
CCOC(=O)c1c(N)oc2cc(Cl)c(O)cc12 | - | KCCM 50564 | 6.3 µg/mL
O=c1c2cc(O)ccc2oc2cccc(O)c12 | - | - | >64 µg/mL
CC(C)S(=O)(=O)N1CCN(c2cnn(-c3cc(F)cc(F)c3)c(=O)c2OC2CCC(F)C2)CC1 | - | C297 | 4 µg/mL
C=C1CC[C@@H]2C[C@H]1C2(C)C.C[C@@H]1[C@H](O)[C@@H](C)/C=C/C=C/C=C/C=C/C=C/C=C/C=C/[C@H](O[C@@H]2O[C@H](C)[C@@H](O)[C@H](N)[C@@H]2O)C[C@@H]2O[C@](O)(C[C@@H](O)C[C@@H](O)[C@H](O)CC[C@@H](O)C[C@@H](O)CC(=O)O[C@H]1C)C[C@H](O)[C@H]2C(=O)O | - | T1-444 serotype A | 78.12 µg/mL
C[C@H]1[C@H](O)[C@@H](C)/C=C/C=C/C=C/C=C/C=C/C=C/C=C/[C@H](O[C@@H]2O[C@H](C)[C@@H](O)[C@H](N)[C@@H]2O)C[C@@H]2O[C@](O)(C[C@@H](O)C[C@@H](O)CC[C@H](O)[C@@H](O)C[C@@H](O)CC(=O)O[C@H]1C)C[C@H](O)[C@H]2C(=O)O | - | ATCC 32045 | 0.25 µg/mL
Nc1scc2c1c(=O)oc1ccccc12 | - | IP 90526 | 2 µg/mL
Cc1nc2c(s1)C(=O)C(Nc1cccc(F)c1)=C(Cl)C2=O | - | KCCM 50564 | 12.5 µg/mL
CC1=C2C[C@@H]3[C@](C)(CCC[C@@]3(C)O)C[C@]2(O)OC1=O | - | ATCC 22402 | >256 µg/mL
OC(Cn1cncn1)(Cn1cncn1)c1ccc(F)cc1F | - | ATCC MYA-737 | 1.6 µg/mL
COC(=O)/C(C)=C1\C(=O)[C@H](O)[C@]2(C)C3=C(C[C@@H]4[C@]5(OC(=O)C6=C5C[C@H]5[C@](O)(COC(=O)/C(C)=C/COC(=O)CCC(=O)OC6)[C@H]6C[C@H]6[C@]45C)[C@H]31)[C@H]1C[C@H]12 | - | ATCC 22402 | 8 µg/mL
CCCCCCCCCC(=O)NC(CCCN)C(N)=O | - | ATCC 2344 | >100 µg/mL
COC(=O)c1c(N)oc2c(C)c(C)c(O)c(Sc3cccc(C)c3)c12 | - | KCCM 50564 | 6.3 µg/mL
CNC(NC)c1ccc2cc(-n3cc(CCCO)nn3)c(=O)oc2c1 | - | ATCC 24067 | >750 µg/mL
CN1CCN(c2n[nH]c(N3C(=O)CS[C@@H]3c3ccc4c(c3)OCO4)n2)CC1 | - | H99 | 1.56 µg/mL
O=C1c2ccccc2C(=O)C2CC(O)OCC12 | - | ATCC 32608 | 87.3 µM
COc1cc(C2Oc3ccc4c(=O)c5c(O)cc(O)cc5oc4c3OC2CO)cc(OC)c1O | - | - | 44 µg/mL
C[C@@H](c1ncncc1F)[C@](O)(Cn1cncn1)c1ccc(F)cc1F | - | CBS 131 | 0.125 µg/mL
C[C@H]1[C@H](O)[C@@H](C)/C=C/C=C/C=C/C=C/C=C/C=C/C=C/[C@H](O[C@@H]2O[C@H](C)[C@@H](O)[C@H](N)[C@@H]2O)C[C@@H]2O[C@](O)(C[C@@H](O)C[C@@H](O)CC[C@H](O)[C@@H](O)C[C@@H](O)CC(=O)O[C@H]1C)C[C@H](O)[C@H]2C(=O)O | - | 32609 | 4 µg/mL
O=C1C=CC[C@H](/C=C/c2ccccc2)O1 | - | - | 18 µg/mL
C[C@H]1[C@H](O)[C@@H](C)/C=C/C=C/C=C/C=C/C=C/C=C/C=C/[C@H](O[C@@H]2O[C@H](C)[C@@H](O)[C@H](N)[C@@H]2O)C[C@@H]2O[C@](O)(C[C@@H](O)C[C@@H](O)CC[C@H](O)[C@@H](O)C[C@@H](O)CC(=O)O[C@H]1C)C[C@H](O)[C@H]2C(=O)O | 72 h | ATCC66031 | 0.5 µg/mL
CCCCCCCCCCCCCCCCCC(=O)NC(CCCN)C(=O)NC(CCCN)C(=O)NC(CCCN)C(=O)NC(CCCN)C(N)=O | - | ATCC 2344 | 6.25 µg/mL
O=c1c(N2CCOCC2)c(N2CCN(S(=O)(=O)Cc3ccccc3)CC2)cnn1-c1ccccc1 | - | C237 | 200 µg/mL
C[C@H]1[C@H](O)[C@@H](C)/C=C/C=C/C=C/C=C/C=C/C=C/C=C/[C@H](O[C@@H]2O[C@H](C)[C@@H](O)[C@H](N)[C@@H]2O)C[C@@H]2O[C@](O)(C[C@@H](O)C[C@@H](O)CC[C@H](O)[C@@H](O)C[C@@H](O)CC(=O)O[C@H]1C)C[C@H](O)[C@H]2C(=O)O | - | 901142 | 0.015 µg/mL
C[C@H]1[C@H](O)[C@@H](C)/C=C/C=C/C=C/C=C/C=C/C=C/C=C/[C@H](O[C@@H]2O[C@H](C)[C@@H](O)[C@H](N)[C@@H]2O)C[C@@H]2O[C@](O)(C[C@@H](O)C[C@@H](O)CC[C@H](O)[C@@H](O)C[C@@H](O)CC(=O)O[C@H]1C)C[C@H](O)[C@H]2C(=O)O | - | - | 1.56 µg/mL
Cc1nc2c(s1)C(=O)C(Nc1ccc(Cl)cc1)=C(Cl)C2=O | - | KCCM 50564 | 1.6 µg/mL
Oc1ccc(O)c(C=Nc2ccccc2O)c1 | - | ATCC 62066 | 2.8 µg/mL

5 of the rows above, restated:

Cc1nc2c(s1)C(=O)C(Nc1ccc(I)cc1)=C(Cl)C2=O ; strain or isolate: KCCM 50564 ; result: 12.5 µg/mL
COC(=O)c1c(N)oc2c(C)c(C)c(O)c(Sc3cccc(C)c3)c12 ; strain or isolate: KCCM 50564 ; result: 6.3 µg/mL
CNC(NC)c1ccc2cc(-n3cc(CCCO)nn3)c(=O)oc2c1 ; strain or isolate: ATCC 24067 ; result: >750 µg/mL
CCCCCCCCCCCCCCCCCC(=O)NC(CCCN)C(=O)NC(CCCN)C(=O)NC(CCCN)C(=O)NC(CCCN)C(=O)NC(CCCN)C(N)=O ; strain or isolate: ATCC 2344 ; result: 3.1 µg/mL
C[C@H]1[C@H](O)[C@@H](C)/C=C/C=C/C=C/C=C/C=C/C=C/C=C/[C@H](O[C@@H]2O[C@H](C)[C@@H](O)[C@H](N)[C@@H]2O)C[C@@H]2O[C@](O)(C[C@@H](O)C[C@@H](O)CC[C@H](O)[C@@H](O)C[C@@H](O)CC(=O)O[C@H]1C)C[C@H](O)[C@H]2C(=O)O ; result: 1.56 µg/mL